Anti-infective test results gathered from many reports (values: NIAID ChemDB through PubChem).

Common to all: cytotoxicity tests; cell line: HepG2; measure: CC50

Blank or dashed fields: not listed here. Rows are shuffled and stem from different studies. CCn: concentration that lowers growth or viability of the cells by n%. Two numbers with a dash give a range or band.

structure	method	value
Cc1cc(NC(=O)c2c(C)c(C(=O)C(=O)NC3(C)CC(O)C3)n(C)c2C2CCCC2)ccc1F	MTT	>30 µM
CCOC(=O)CCCCCOc1cccc(CN(C(=O)c2ccc(-c3cnc(OC)nc3OC)cc2)C(C)C)c1		>20 µM
CNC(=O)c1c(Cl)c(-n2c(NC(C)C)nc3c(c2=O)C[C@@H](C)N(C(=O)c2ccc(Cl)c(C(F)(F)F)c2)C3)nn1C	luminescence	>50 µM
CCOC(=O)COc1ccc(C(O)O)cc1		>20 µM
CNC(=O)c1nc(-n2c(NC(C)C)nc3c(c2=O)C[C@@H](C)N(C(=O)c2ccc(Cl)c(C(F)(F)F)c2)C3)cn1C	luminescence	>50 µM
CC(C)N(Cc1cccc(OCCCCCC(=O)OC(=O)O)c1)C(=O)c1ccc(-c2cccc(F)c2)cc1		>20 µM
CCc1c(C(=O)Nc2ccc(F)c(C)c2)c(C)c(C(=O)C(=O)NC2CCC(S(C)(=O)=O)CC2)n1C	MTT	>30 µM
CCCN(Cc1ccccc1OCC(=O)O)C(=O)c1ccc(-c2ccc3c(c2)OCO3)cc1		>20 µM
Cc1c(C(=O)Nc2cc(Cl)nc(Cl)c2)c(C)n(C)c1C(=O)C(=O)NC1(C)CCC(O)CC1	MTT	>30 µM
COc1ccc(Oc2ccc3c(NCCCNCc4cccc(OC)c4O)ccnc3c2)cc1	fluorescence	5.5 µM
Cc1cc(NC(=O)c2c(C)c(C(=O)C(=O)N[C@@H]3CN[C@H](C(=O)O)C3)n(C)c2C)ccc1F	MTT	>30 µM
CNC(=O)N1CCC(n2c(NC(C)C)nc3c(c2=O)C[C@@H](C)N(C(=O)c2ccc(Cl)c(C(F)(F)F)c2)C3)CC1	luminescence	>50 µM
C=CCCC1=NCC(O[Si](C)(C)C(C)(C)C)c2cc(OC)c(OC)cc21		<7.5 µM
COc1cccc(CNCCCNc2ccnc3cc(Cc4ccc(F)cc4Cl)ccc23)c1O	fluorescence	2.35 µM
CCc1c(C(=O)Nc2ccc(F)c(C)c2)c(C)n(C)c1C(=O)C(=O)NCC(C)(C)O	MTT	>30 µM
CCOC(=O)CC(=O)NCCc1ccc(OC)c(OC)c1		<7.5 µM
Cc1c(C(=O)Nc2cccc(C#N)c2)c(C)n(C)c1C(=O)C(=O)NC1(C)CCC(O)CC1	MTT	>30 µM
CCOC(=O)CCCCCOc1cccc(CN(C(=O)c2ccc(-c3ccoc3)cc2)C(C)C)c1		>20 µM
COc1ccc(F)cc1CNCCCNc1ccnc2cc(CC(C)C)ccc12	fluorescence	2.9 µM
COc1cc(OC)cc(-c2ccc(C(=O)N(Cc3cccc(OCCCCCC(=O)OC(=O)O)c3)C(C)C)cc2)c1		>20 µM
COc1cccc(CNCCCNc2ccnc3cc(Oc4cccc(N(C)C)c4)ccc23)c1O	fluorescence	7.3 µM
Cc1c(C(=O)NC23CCC(O)(CC2)CC3)c(C)n(C)c1C(=O)C(=O)Nc1cccnc1	MTT	>30 µM
c1coc(CNCCCNc2ccnc3cc(CC4CCCCC4)ccc23)c1	fluorescence	1.7 µM
Cc1cc(Cl)cc(NC(=O)c2c(C)c(C(=O)C(=O)NC3(C)CCC(O)CC3)n(C)c2C)c1	MTT	5–30 µM
CNC(=O)c1coc(-n2c(NC(C)C)nc3c(c2=O)C[C@@H](C)N(C(=O)c2ccc(Cl)c(C(F)(F)F)c2)C3)n1	luminescence	>50 µM